Source: paper PMC5435703 (Scientific Reports, 2017)
Entries after “also recorded” stand apart in the source; their conditions may differ.

Assay: UV-Vis metal(II) binding, metals taken together
Type: physicochemical
Details: UV-Vis experiments

## COCCOCCOCCOCCOC(=O)Oc1c(Br)cc(Br)c2nc3ccccc3nc12 [HP 24]
  direct binding of metal(II) cations: do not directly bind

## COCCOCCOCCOCCOC(=O)Oc1c(Br)cc(Br)c2nc3c(C)cccc3nc12 [HP 25]
  direct binding of metal(II) cations: do not directly bind; also recorded: does not bind
